A mixed list of measured activities; the numbers were collected in NIAID ChemDB.

Shared fields: growth or infection tests; agent: Mycobacterium aurum; read-out: MIC

Conditions beyond the fields shown may differ between rows. Blank or dashed fields: not listed here.

| structure | strain or isolate | changes | read by | result |
|---|---|---|---|---|
| CC1CN(c2c(F)cc3c(=O)c(C(=O)O)cn(C4CC4)c3c2Br)CCN1 | ATCC23366 | - | - | 0.06 µg/mL |
| C[C@H]1COC2(CCN(C3=NC(=O)c4cc(C(F)(F)F)cc([N+](=O)[O-])c4S3(=O)=O)CC2)O1 | SB66 | - | broth dilution / turbidity | >200 µg/mL |
| C[C@@H]1CN(c2cc3c(cc2F)c(=O)c(C(=O)O)cn3C(C)(C)C)C[C@H](C)N1 | ATCC23366 | - | - | 0.06 µg/mL |
| CC[C@@H](CO)NCCN[C@@H](CC)CO | - | - | - | 1 µg/mL |
| CC1CN(c2nc3c(cc2F)c(=O)c(C(=O)O)cn3C(C)(C)C)CCN1 | ATCC23366 | - | - | 0.06 µg/mL |
| C=C1[C@@H](C)CC[C@@]2(C)[C@H]1CC=C1C(=O)O[C@@H](O)[C@@]12O | - | - | - | >128 µg/mL |
| NNC(=O)c1ccncc1 | A+ | - | - | 0.03 µg/mL |
| CC(=O)O[C@H]1CC[C@]2(C)[C@H]3COC(=O)C3=CC[C@H]2C1(C)C | - | - | - | >128 µg/mL |
| C[C@@H]1CN(c2nc3c(cc2F)c(=O)c(C(=O)O)cn3C(C)(C)C)C[C@H](C)N1 | ATCC23366 | - | - | 0.06 µg/mL |
| C=C1[C@@H]2[C@@H](O)C=C(C=O)[C@](O)(C=O)[C@@]2(C)CC[C@@H]1C | - | - | - | >128 µg/mL |
| CC[C@@H](C(=O)[C@@H](C)[C@@H](O)[C@H](C)[C@@H]1O[C@@H]([C@@H](CC)C(=O)O)CC[C@@H]1C)[C@H]1O[C@@]2(C=C[C@@H](O)[C@@]3(CC[C@@](C)([C@H]4CC[C@](O)(CC)[C@H](C)O4)O3)O2)[C@H](C)C[C@@H]1C | - | T532 insertion | resazurin | 0.08 µg/mL |
| CCCCC/C=C\C/C=C\CCCCCCCC(=O)O | - | - | - | 4 µg/mL |
| CNc1ccc2oc(C[C@@H]3OC4(CC[C@@H]3C)O[C@H](C(C)C(=O)c3ccc[nH]3)[C@H](C)C[C@H]4C)nc2c1C(=O)O | - | - | resazurin | 0.08 µg/mL |
| NNC(=O)c1ccncc1 | A+ (INH-S) | - | - | 1 µg/mL |

Repeating the final 2 entries:

structure	strain or isolate	changes	read by	result
CNc1ccc2oc(C[C@@H]3OC4(CC[C@@H]3C)O[C@H](C(C)C(=O)c3ccc[nH]3)[C@H](C)C[C@H]4C)nc2c1C(=O)O	-	-	resazurin	0.08 µg/mL
NNC(=O)c1ccncc1	A+ (INH-S)	-	-	1 µg/mL